We go through two compounds from ChEMBL document CHEMBL1125714, “Novel class of amino acid antagonists at non-N-methyl-D-aspartic acid excitatory amino acid receptors. Synthesis, in vitro and in vivo pharmacology, and neuroprotection” (J Med Chem, 1991).

The species named for assay [1] is Rattus norvegicus. Kind of assay: Neuroprotective effect evaluated for excitatory amino acid receptor antagonism with the concentration at 1 uL in the corpus striatum of 10 rats with glutamic acid decarboxylase as the marker enzyme.
For assay [2], the species on record is Rattus norvegicus. Briefly: Neuroprotective effect evaluated for excitatory amino acid receptor antagonism with the concentration at 1 uL in the corpus striatum of 10 rats with choline acetyltransferase as the marker enzyme.

Turning to `C=C(C)[C@H]1CN[C@H](C(=O)O)[C@H]1CC(=O)O.Cc1onc(O)c1Cn1oc(C)c(CC(N)C(=O)O)c1=O` (centres undefined), the Enzyme activity in the assay filed under Rattus norvegicus [1] worked out at 68%; in the assay listed under Rattus norvegicus [2], 87%.

`C=C(C)[C@H]1CN[C@H](C(=O)O)[C@H]1CC(=O)O.Cc1onc(OCC(=O)O)c1CC(N)C(=O)O` (centres undefined) [KAINIC ACID]: the Enzyme activity in the assay listed under Rattus norvegicus [1] was found to be 102%; in the assay filed under Rattus norvegicus [2] it was 90%.
